Experimental data reported in patent publication US6863895B2, “Mycobacterial sulfation pathway proteins and methods of use thereof” (priority 2001, dated 2005).
Read-outs that look alike come from different tables or passages of the source.

Chains of the proteins cited; added tags and fusions are not shown. Residues count along the entry.
UniProt P9WNM5, 442-614 limits assumed: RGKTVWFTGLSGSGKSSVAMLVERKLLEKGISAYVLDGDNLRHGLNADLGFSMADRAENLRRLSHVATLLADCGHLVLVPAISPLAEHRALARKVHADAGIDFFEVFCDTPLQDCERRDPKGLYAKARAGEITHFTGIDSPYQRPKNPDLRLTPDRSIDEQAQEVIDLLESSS

Target: M. tuberculosis CysC (APS kinase) (Mycobacterium tuberculosis, UniProt P9WNM5)
Experiment: Coupled in vitro assay of M. tuberculosis CysC (APS kinase)
Conditions: read-out: apparent Km, for APS

Nc1ncnc2c1ncn2[C@@H]1O[C@H](COP(=O)(O)OS(=O)(=O)O)[C@@H](O)[C@H]1O [APS, adenylyl phosphosulfate]
Km (in the presence of 75 mM sulfate): 1.7 µM | Km (saturating ATP (5 mM)): 0.64 µM
